Experiment in all cases: EMSA
A general note: In EMSA bound probe runs differently from free probe, usually more slowly.

For series [1], the system named is GST-Fos-ZTA chimera (c-Fos 133-162 + ZTA 197-229). The conditions noted are these: increased by pX; purified recombinant protein; protein details: GST; label: 32P.
A further series relates to c-Jun derivative. The conditions noted are these: enhanced by pX; purified recombinant protein; protein details: His; label: 32P.
The test system of series [2] is C/EBP delta1-2 derivative. The conditions noted are these: enhanced by pX; site printed in text with a stray F; purified recombinant protein; label: 32P.

The exact form of at least one protein or probe is not confirmed.

“AGCTTTGACTCATCCCGGA (double strand) [collagenase TRE oligoduplex]”: the binding result (in series [1]; in the series with c-Jun derivative) was “binds” throughout. Consider “TGCAGATTGCGCAATCTGCA (double strand) [C/EBP binding site]”, for which, in series [2], the binding result is given as “binds”.

The record behind these values is patent publication US6051373, “Methods for screening for inhibitors of the transcription-enhancing activity of the X protein of hepatitis B virus” (Scriptgen Pharmaceuticals, Inc.).
